Compound potency records, mixed from different reports. Data source: NIAID ChemDB in PubChem.

All rows: tests in culture; species: Candida albicans; measure: MIC

Conditions beyond the fields shown may differ between rows. An empty or dashed field is not shown.

SMILES,strain,value
Clc1ccc(CO/N=C2/c3ccccc3OCC2n2cncn2)cc1,ATCC 10231,16 µg/mL
CCCCCOc1ccc(-c2ccc(-c3ccc(C(=O)N[C@H]4CCCNC(=O)[C@@H]5C[C@H](NC(=O)OC(C)(C)C)CN5C(=O)[C@H]([C@@H](C)O)NC(=O)[C@H](CCc5ccc(O)cc5)NC(=O)[C@@H]5C[C@@H](O)CN5C(=O)[C@H]([C@@H](C)O)NC4=O)cc3)cc2)cc1,ATCC 38247,>100 µg/mL
Clc1cccc(Cl)c1CO/N=C1/c2ccccc2OCC1n1cncn1,ATCC 10231,>64 µg/mL
C=C(CF)CN1C[C@H](OC[C@@]23C[C@@H]4[C@H](C)CC[C@H]4[C@@]4(C=O)C[C@@H]2CC(C(C)C)[C@@]34C(=O)O)O[C@H](C)C1,CL-245 (fluconazole-resistant),≤0.001 µg/mL
Clc1ccc(CO/N=C2/c3ccc(Cl)cc3OCC2n2cnnc2)cc1,ATCC 10231,16 µg/mL
C[C@@H](n1cnc2c(Br)cc(Br)cc2c1=O)[C@](O)(Cn1cncn1)c1ccc(F)cc1F,406 strains,≤0.03 µg/mL
CCCCCOc1ccc(-c2ccc(-c3ccc(C(=O)N[C@H]4CCCNC(=O)[C@@H]5C[C@H](N)CN5C(=O)[C@H]([C@@H](C)O)NC(=O)[C@H](CCc5ccc(O)cc5)NC(=O)[C@@H]5C[C@@H](O)CN5C(=O)[C@H]([C@@H](C)O)NC4=O)cc3)cc2)cc1,ATCC 38247,0.39 µg/mL
COc1ccc(NC(=O)CSC2NC(c3ccc(OC)c(OC)c3)=CC(c3cc(OC)c(OC)c(OC)c3)N2)cc1,DSM 70014,100 µg/mL
CC(C)C(=O)CCC[C@H]1CO[C@@](Cn2cncn2)(c2ccc(F)cc2F)C1,B02630,>100 µg/mL
O=C(Cc1ccc([N+](=O)[O-])cc1)Nc1ccc2oc(-c3ccccc3)nc2c1,ATCC 10145,25 µg/mL
CO[C@@H]1C[C@H](C[C@@H](C)[C@@H]2CC(=O)[C@H](C)/C=C(\C)[C@@H](O)[C@@H](OC)C(=O)[C@H](C)C[C@H](C)/C=C/C=C/C=C(\C)[C@H](N(O)C(=O)N(C)C)C[C@@H]3CC[C@@H](C)[C@@](O)(O3)C(=O)C(=O)N3CCCC[C@H]3C(=O)O2)CC[C@H]1C(=O)ON(C)O,62376,100 µg/mL
C[C@@H](n1cnc2cc(S(C)(=O)=O)ccc2c1=O)[C@](O)(Cn1cncn1)c1ccc(F)cc1F,76 strains,2.5 µg/mL
CC(C)C(=O)CCC[C@@H]1CO[C@@](Cn2cccc2)(c2ccc(F)cc2F)C1,B02630,>100 µg/mL
CO[C@@H]1C[C@H](C[C@@H](C)[C@@H]2CC(=O)[C@H](C)/C=C(\C)[C@@H](O)[C@@H](OC)C(=O)[C@H](C)C[C@H](C)/C=C/C=C/C=C(\C)[C@H](N(O)C(N)=O)C[C@@H]3CC[C@@H](C)[C@@](O)(O3)C(=O)C(=O)N3CCCC[C@H]3C(=O)O2)CC[C@H]1C(=O)ON(C)O,62376,100 µg/mL
Fc1cc(C2=Nn3c(COc4ccccc4Cl)nnc3S/C2=C\c2ccc(Cl)cc2Cl)c(Cl)cc1Cl,,12.5 µg/mL
COc1ccc(CN2C[C@H](OC[C@@]34C[C@@H]5[C@H](C)CC[C@H]5[C@@]5(C=O)C[C@@H]3CC(C(C)C)[C@@]45C(=O)O)O[C@H](C)C2)cc1,CL-236,≤0.001 µg/mL
CC(C)C(=O)CCC[C@@H]1CO[C@@](Cn2cncn2)(c2ccc(F)cc2F)C1,B02630,>100 µg/mL
Clc1ccc(CO/N=C2/c3ccccc3OCC2n2cnnc2)cc1,ATCC 10231,32 µg/mL
COc1ccc(/C=C2\Sc3nnc(COc4ccc(Cl)cc4)n3N=C2c2cc(F)c(Cl)cc2Cl)cc1OC,,6 µg/mL
CCCCCOc1ccc(-c2ccc(-c3ccc(C(=O)N[C@H]4CCCNC(=O)[C@@H]5C[C@H](CN)CN5C(=O)[C@H]([C@@H](C)O)NC(=O)[C@H](CCc5ccc(O)cc5)NC(=O)[C@@H]5C[C@@H](O)CN5C(=O)[C@H]([C@@H](C)O)NC4=O)cc3)cc2)cc1,ATCC 62376,0.78 µg/mL
CCCSc1nc(C(N)=S)cnc1CC(C)C,ATCC 44859,>31.25 µg/mL
CCCCCCCOc1ccc(N2CCN(c3ccc(C(=O)N[C@H]4CCCNC(=O)[C@@H]5C[C@H](N)CN5C(=O)[C@H]([C@@H](C)O)NC(=O)[C@H](CCc5ccc(N)cc5)NC(=O)[C@@H]5CCCN5C(=O)[C@H]([C@@H](C)O)NC4=O)cc3)CC2)cc1,ATCC 62376,0.2 µg/mL
CCCc1ncc(C(N)=O)nc1Sc1ccccc1,ATCC 44859,>31.25 µg/mL
C=C(C)CN1C[C@H](OC[C@@]23C[C@@H]4[C@H](C)CC[C@H]4[C@@]4(C=O)C[C@@H]2CC(C(C)C)[C@@]34C(=O)O)O[C@H](C)C1,4711E,≤0.001 µg/mL
Cc1c(Sc2ccccc2)[n+](=O)c2cc(C(F)(F)F)ccc2n1[O-],Clinical isolate 16,15.6 µg/mL
CCC(C)n1ncn(-c2ccc(N3CCN(c4ccc(OC[C@H]5CO[C@](Cn6cncn6)(c6ccc(Cl)cc6Cl)O5)cc4)CC3)cc2)c1=O,406 strains,0.07 µg/mL
CCCCCOc1ccc(-c2ccc(-c3ccc(C(=O)N[C@H]4CCCNC(=O)[C@@H]5C[C@H](O)CN5C(=O)[C@H]([C@@H](C)O)NC(=O)[C@H](CCc5ccc(O)cc5)NC(=O)[C@@H]5C[C@@H](O)CN5C(=O)[C@H]([C@@H](C)O)NC4=O)cc3)cc2)cc1,ATCC 62376,0.39 µg/mL
O=C(Cc1ccccc1Cl)Nc1ccc2oc(-c3ccccc3)nc2c1,ATCC 10145,25 µg/mL
C[C@@H](SC1COC(/C=C/C=C/c2ccc(C#N)cc2F)OC1)[C@](O)(Cn1cncn1)c1ccc(F)cc1F,CAL-0015,0.03 µg/mL
COc1ccc(/C=c2\sc3n(c2=O)C(c2cc(OC)c(OC)c(OC)c2)C=C(c2ccc(OC)c(OC)c2)N=3)cc1OC,DSM 70014,25 µg/mL
CO[C@H]1C[C@@H]2CC[C@@H](C)[C@@](O)(O2)C(=O)C(=O)N2CCCC[C@H]2C(=O)O[C@H]([C@H](C)C[C@@H]2CC[C@@H](C(=O)ON3CCNCC3)[C@H](OC)C2)CC(=O)[C@H](C)/C=C(\C)[C@@H](O)[C@@H](OC)C(=O)[C@H](C)C[C@H](C)CCCC/C=C/1C,442,>100 µg/mL
CC(C)(C)c1ncc(C(N)=O)nc1Sc1ccccc1,ATCC 44859,>31.25 µg/mL
COc1ccc(C2=NN(C=O)C(c3cc(OC)c(OC)c(OC)c3)C2)cc1OC,DSM 70014,50 µg/mL
O=[n+]1c(Sc2ccccc2)c(CBr)n([O-])c2ccccc21,Clinical isolate 13,15.6 µg/mL
CC(C)(C)c1ccc(-c2nc3cc(NC(=O)CN4CCNCC4)ccc3o2)cc1,ATCC 10145,25 µg/mL
CN(CCCC#CC(C)(C)C)c1cccc2c1CCC(=O)N2,Clinical isolate 24,31.25 µg/mL
CO[C@@H]1C[C@H](C[C@@H](C)[C@@H]2CC(=O)[C@H](C)/C=C(\C)[C@@H](O)[C@@H](OC)C(=O)[C@H](C)C[C@H](C)/C=C/C=C/C=C(\C)[C@H](N(OC)C(=O)N(C)C)C[C@@H]3CC[C@@H](C)[C@@](O)(O3)C(=O)C(=O)N3CCCC[C@H]3C(=O)O2)CC[C@H]1C(=O)ON(C)O,10231,>100 µg/mL
CCCSc1nc(C(N)=S)cnc1CCC,ATCC 44859,>31.25 µg/mL
COc1ccc(/C=C2\Sc3nnc(COc4ccccc4Cl)n3N=C2c2cc(F)c(Cl)cc2Cl)cc1OC,,12.5 µg/mL
CCCCCN[C@H]1CCCNC(=O)[C@@H]2C[C@H](N)CN2C(=O)[C@H]([C@@H](C)O)NC(=O)[C@H](CCc2ccc(O)cc2)NC(=O)[C@@H]2C[C@@H](O)CN2C(=O)[C@H]([C@@H](C)O)NC1=O,ATCC 38247,0.2 µg/mL
Cc1c(Sc2ccccc2)[n+](=O)c2cc(Cl)ccc2n1[O-],Clinical isolate 24,31.25 µg/mL
COc1ccc(C2=CC(c3cc(OC)c(OC)c(OC)c3)N=C(SCC(C)=O)N2)cc1OC,DSM 70014,50 µg/mL
CCCCc1ncc(C(N)=O)nc1Sc1ccccc1,ATCC 44859,>31.25 µg/mL
Cc1cc(C)c2ncn([C@H](C)[C@](O)(Cn3cncn3)c3ccc(F)cc3F)c(=O)c2c1,60 strains,≤0.15 µg/mL
C[C@H]1[C@H](O)[C@@H](C)/C=C/C=C/C=C/C=C/C=C/C=C/C=C/[C@H](O[C@@H]2O[C@H](C)[C@@H](O)[C@H](N)[C@@H]2O)C[C@@H]2O[C@](O)(C[C@@H](O)C[C@@H](O)CC[C@H](O)[C@@H](O)C[C@@H](O)CC(=O)O[C@H]1C)C[C@H](O)[C@H]2C(=O)O,AD,0.25 µg/mL
CC(C)C(=O)CCC[C@@H]1CO[C@@](Cn2ccnc2)(c2ccc(F)cc2F)C1,CI-2,50 µg/mL
Fc1cc(C2=Nn3c(CNc4ccccc4)nnc3S/C2=C\c2ccc3c(c2)OCO3)c(Cl)cc1Cl,,12.5 µg/mL
CN[C@@H]1[C@H](O[C@@H]2O[C@H](CO)[C@@H](O)[C@H](S(=O)(=O)O)[C@H]2O)[C@@H](O)[C@H](O[C@H]2c3cc(C)c(C(=O)N[C@H](C)C(=O)O)c(O)c3-c3c(cc4c(c3O)C(=O)c3cc(OC)cc(O)c3C4=O)[C@@H]2O)O[C@@H]1C,ATCC 32354,6.3 µg/mL
CCOc1cc2c(cc1F)n([O-])c(C)c(S(=O)(=O)c1ccccc1)[n+]2=O,Clinical isolate 18,7.8 µg/mL
CCCCCOc1ccc(-c2ccc(-c3ccc(C(=O)N[C@H]4CCCNC(=O)[C@@H]5C[C@H](NC(=O)OC)CN5C(=O)[C@H]([C@@H](C)O)NC(=O)[C@H](CCc5ccc(O)cc5)NC(=O)[C@@H]5C[C@@H](O)CN5C(=O)[C@H]([C@@H](C)O)NC4=O)cc3)cc2)cc1,ATCC 38247,1.25 µg/mL
Fc1ccc(NCc2nnc3n2N=C(c2cc(F)c(Cl)cc2Cl)/C(=C/c2ccc(Cl)cc2Cl)S3)cc1Cl,,12.5 µg/mL
Cc1ccc(O)c(C(=O)/C=C/c2ccc(O)cc2O)c1,ATCC 18804,75 µg/mL
C[C@@H](n1cnc2cc(OCC(F)F)ccc2c1=O)[C@](O)(Cn1cncn1)c1ccc(F)cc1F,60 strains,0.15 µg/mL
CC(C)C(=N)CCC=C1CO[C@@](Cn2ccnc2)(c2ccc(F)cc2F)C1,A.10231,100 µg/mL
COc1ccc(/C=C2\Sc3nnc(CNc4ccc(F)c(Cl)c4)n3N=C2c2cc(F)c(Cl)cc2Cl)cc1OC,,6 µg/mL
CCc1ccc(-c2nc3cc(NC(=O)CN4CCNCC4)ccc3o2)cc1,ATCC 10145,50 µg/mL
CCCCc1ncc(C(N)=S)nc1SC,ATCC 44859,>31.25 µg/mL
CO[C@H]1C[C@@H]2CC[C@@H](C)[C@@](O)(O2)C(=O)C(=O)N2CCCC[C@H]2C(=O)O[C@H]([C@H](C)C[C@@H]2CC[C@@H](C(=O)ON3CCCCC3)[C@H](OC)C2)CC(=O)[C@H](C)/C=C(\C)[C@@H](O)[C@@H](OC)C(=O)[C@H](C)C[C@H](C)CCCC/C=C/1C,38247,>100 µg/mL
COc1ccc(C2=CC(c3cc(OC)c(OC)c(OC)c3)NC(=S)N2c2ccccc2)cc1OC,DSM 70014,100 µg/mL
O=C(/C=C/c1cc(O)ccc1O)c1ccccc1,SDAU5,100 µg/mL
CCCCc1ncc(C(N)=O)nc1SC,ATCC 44859,>31.25 µg/mL
Fc1ccc(CCCCn2c3c(c4cc(F)ccc42)CNCC3)cc1,04-81,1 µg/mL

A second listing of 9 rows from above:

SMILES,strain,value
C=C(CF)CN1C[C@H](OC[C@@]23C[C@@H]4[C@H](C)CC[C@H]4[C@@]4(C=O)C[C@@H]2CC(C(C)C)[C@@]34C(=O)O)O[C@H](C)C1,CL-245 (fluconazole-resistant),≤0.001 µg/mL
CO[C@@H]1C[C@H](C[C@@H](C)[C@@H]2CC(=O)[C@H](C)/C=C(\C)[C@@H](O)[C@@H](OC)C(=O)[C@H](C)C[C@H](C)/C=C/C=C/C=C(\C)[C@H](N(O)C(=O)N(C)C)C[C@@H]3CC[C@@H](C)[C@@](O)(O3)C(=O)C(=O)N3CCCC[C@H]3C(=O)O2)CC[C@H]1C(=O)ON(C)O,62376,100 µg/mL
Cc1c(Sc2ccccc2)[n+](=O)c2cc(Cl)ccc2n1[O-],Clinical isolate 24,31.25 µg/mL
Clc1ccc(CO/N=C2/c3ccccc3OCC2n2cncn2)cc1,ATCC 10231,16 µg/mL
C[C@H]1[C@H](O)[C@@H](C)/C=C/C=C/C=C/C=C/C=C/C=C/C=C/[C@H](O[C@@H]2O[C@H](C)[C@@H](O)[C@H](N)[C@@H]2O)C[C@@H]2O[C@](O)(C[C@@H](O)C[C@@H](O)CC[C@H](O)[C@@H](O)C[C@@H](O)CC(=O)O[C@H]1C)C[C@H](O)[C@H]2C(=O)O,AD,0.25 µg/mL
COc1ccc(/C=C2\Sc3nnc(COc4ccc(Cl)cc4)n3N=C2c2cc(F)c(Cl)cc2Cl)cc1OC,,6 µg/mL
COc1ccc(/C=C2\Sc3nnc(COc4ccccc4Cl)n3N=C2c2cc(F)c(Cl)cc2Cl)cc1OC,,12.5 µg/mL
CO[C@@H]1C[C@H](C[C@@H](C)[C@@H]2CC(=O)[C@H](C)/C=C(\C)[C@@H](O)[C@@H](OC)C(=O)[C@H](C)C[C@H](C)/C=C/C=C/C=C(\C)[C@H](N(O)C(N)=O)C[C@@H]3CC[C@@H](C)[C@@](O)(O3)C(=O)C(=O)N3CCCC[C@H]3C(=O)O2)CC[C@H]1C(=O)ON(C)O,62376,100 µg/mL
COc1ccc(C2=CC(c3cc(OC)c(OC)c(OC)c3)N=C(SCC(C)=O)N2)cc1OC,DSM 70014,50 µg/mL